PubChem BioAssay AID624099 | ICCB-Longwood | 2012

- Test: 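Knock-downs relieving repression by E2 of an HPV18 LCR luciferase reporter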 (primary screen)
- Cell system: human C33A cervical carcinoma cells (HPV-negative) stably expressing BPV1 E2 and an HPV18 LCR luciferase reporter
- Reagent: siRNA pool against human genes, 40 nM
- Duration: 72 h
- Measurement: 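Per-well luciferase luminescence, z-scored on each plate against the plate mean and SD with control wells left out, then averaged across three replicate plates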
- Reading the numbers: mean z-score and z-score: higher = stronger reporter signal, weaker E2 silencing
- Hit rule: 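Mean z ≥ 2 together with z ≥ 2 in two or more of the three replicates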
In all, the deposit lists about 21,000 reagents; below is a random part of them. Over the whole deposit, 497 (2.4%) are marked active. 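Higher z means weaker E2 silencing; only reporter increases were scored, and knock-downs that hurt cell survival may mask genuine repressor factors.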

target gene,mean z-score,"z-score, replicate A","z-score, replicate B","z-score, replicate C",outcome
GMDS (GeneID 2762),0.34,-0.4,0.37,1.07,inactive
LHB (GeneID 3972),0.53,0.41,0.78,0.41,inactive
KLRC1 (GeneID 3821),-1.02,-1.27,-1.11,-0.69,inactive
RASIP1 (GeneID 54922),-0.27,0.04,-0.36,-0.48,inactive
POLR2A (GeneID 5430),-4.25,-4.08,-4.34,-4.33,inactive
SEPTIN2 (GeneID 4735),2.33,2.47,2.06,2.47,active
OR2S2 (GeneID 56656),0.29,0.33,0.52,0.02,inactive
SAP18 (GeneID 10284),0.19,-0.08,0.14,0.51,inactive
SACK1E (GeneID 54854),-0.97,-0.86,-1.22,-0.82,inactive
CLTCL1 (GeneID 8218),0.57,0.69,0.63,0.4,inactive
MEX3A (GeneID 92312),-0.57,-0.63,-0.54,-0.56,inactive
TSNARE1 (GeneID 203062),-0.12,-0.32,0.3,-0.35,inactive
LOC400320 (retired record) (GeneID 400320),-0.3,-0.11,-0.58,-0.22,inactive
SRPRB (GeneID 58477),0.25,0.89,0.16,-0.28,inactive
LIPA (GeneID 3988),-0.3,-0.11,-0.85,0.07,inactive
EPAS1 (GeneID 2034),-0.3,-0.3,-0.27,-0.34,inactive
UBE2V2 (GeneID 7336),0.12,0.22,0.08,0.07,inactive
TDRD5 (GeneID 163589),-0.48,-0.51,-0.42,-0.52,inactive
RPS10P3 (GeneID 158104),-0.1,0.38,-0.54,-0.13,inactive
RPP25L (GeneID 138716),-1,-0.73,-0.95,-1.32,inactive
LETMD1 (GeneID 25875),0.37,0.4,0.15,0.57,inactive
KRT74 (GeneID 121391),-0.22,0.04,-0.22,-0.47,inactive
CHKB (GeneID 1120),-0.03,-0.13,-0.25,0.28,inactive
NRXN3 (GeneID 9369),-0.34,-0.15,-0.36,-0.52,inactive
MRM1 (GeneID 79922),-0.31,-0.74,0.15,-0.34,inactive
KGD4 (GeneID 92259),1.11,0.82,1.25,1.26,inactive
ABCC3 (GeneID 8714),0.26,0.2,0.15,0.44,inactive
GNAT2 (GeneID 2780),-0.43,-0.54,-0.16,-0.58,inactive

Next part (8 carried over from the part before).
target gene,mean z-score,"z-score, replicate A","z-score, replicate B","z-score, replicate C",outcome
LETMD1 (GeneID 25875),0.37,0.4,0.15,0.57,inactive
KRT74 (GeneID 121391),-0.22,0.04,-0.22,-0.47,inactive
CHKB (GeneID 1120),-0.03,-0.13,-0.25,0.28,inactive
NRXN3 (GeneID 9369),-0.34,-0.15,-0.36,-0.52,inactive
MRM1 (GeneID 79922),-0.31,-0.74,0.15,-0.34,inactive
KGD4 (GeneID 92259),1.11,0.82,1.25,1.26,inactive
ABCC3 (GeneID 8714),0.26,0.2,0.15,0.44,inactive
GNAT2 (GeneID 2780),-0.43,-0.54,-0.16,-0.58,inactive
SLC6A9 (GeneID 6536),-0.25,-0.09,-0.15,-0.49,inactive
AAMDC (GeneID 28971),-0.11,-0.26,0.06,-0.14,inactive
UTS2R (GeneID 2837),-0.84,-0.76,-0.61,-1.16,inactive
FCER2 (GeneID 2208),-0.5,-0.51,-0.33,-0.64,inactive
DYNAP (GeneID 284254),-1.03,-1.08,-1.11,-0.91,inactive
LBP (GeneID 3929),0.89,1,0.82,0.84,inactive
GCGR (GeneID 2642),-1.46,-1.23,-1.44,-1.71,inactive
MILIP (GeneID 92659),0.82,1.11,0.68,0.67,inactive
TEX11 (GeneID 56159),0.88,0.85,0.85,0.94,inactive
COG4 (GeneID 25839),1.4,1.33,1.54,1.32,inactive
PCDH1 (GeneID 5097),-1.31,-1.2,-1.35,-1.37,inactive
LOC388481 (retired record) (GeneID 388481),-0.35,-0.77,-0.29,0.02,inactive
MAP1LC3A (GeneID 84557),-0.93,-0.85,-1.09,-0.85,inactive
ZNF212 (GeneID 7988),0.57,0.75,0.56,0.39,inactive
MMP28 (GeneID 79148),-0.99,-0.98,-1.17,-0.81,inactive
PAQR8 (GeneID 85315),0.51,0.4,0.51,0.61,inactive
FARSA (GeneID 2193),0.01,0.14,-0.09,-0.02,inactive
TSNAX (GeneID 7257),0.04,-0.01,0.04,0.09,inactive
C5orf47 (GeneID 133491),0.46,1.11,0.06,0.21,inactive
EBLN2 (GeneID 55096),1.67,1.76,1.67,1.57,inactive
SLC24A3 (GeneID 57419),0.08,0.26,-0.26,0.25,inactive
ALPP (GeneID 250),-0.3,-0.24,-0.47,-0.2,inactive
EIF4G1 (GeneID 1981),0.26,0.25,0.45,0.09,inactive
FKBP3 (GeneID 2287),1.44,2.31,0.95,1.07,inactive
SLC10A1 (GeneID 6554),-1.75,-1.68,-1.44,-2.14,inactive
C15orf61 (GeneID 145853),0.51,0.47,0.73,0.33,inactive
MPP7 (GeneID 143098),0.2,0.13,0.28,0.2,inactive
COL14A1 (GeneID 7373),-0.49,-0.65,-0.39,-0.43,inactive
MOSPD2 (GeneID 158747),-0.7,-1,-0.41,,inactive
ZNF850-DT (GeneID 728485),-0.52,-0.44,-0.5,-0.62,inactive
DMBX1 (GeneID 127343),-0.23,-0.11,-0.19,-0.39,inactive
NDST1 (GeneID 3340),0.65,0.65,0.65,0.64,inactive
HMSD (GeneID 284293),-1.3,-1.52,-1.14,-1.25,inactive
IFI27L2 (GeneID 83982),-0.28,-0.03,-0.48,-0.34,inactive
KRTAP17-1 (GeneID 83902),-1.2,-1.2,-1.21,-1.18,inactive
MFNG (GeneID 4242),-0.71,-0.43,-1.04,-0.66,inactive
PPM1N (GeneID 147699),0.57,-0.08,0.86,0.92,inactive
LY6G5C (GeneID 80741),-0.7,-0.98,-0.63,-0.48,inactive
DAW1 (GeneID 164781),0.93,0.88,1.25,0.65,inactive
SPIN3 (GeneID 169981),-0.05,-0.47,0.05,0.28,inactive
LOC145846 (retired record) (GeneID 145846),1.11,0.9,1.43,0.99,inactive
IQSEC3P3 (GeneID 728056),1.51,1.44,1.29,1.8,inactive
PCDHGA5 (GeneID 56110),-0.85,-1.53,-0.59,-0.41,inactive
HDDC3 (GeneID 374659),0.92,0.9,0.99,0.88,inactive
DSP (GeneID 1832),0.52,0.68,0.42,0.47,inactive
